Measured values from several laboratories, pooled; numbers as filed in NIAID ChemDB.

Common to all: cytotoxicity tests; cells: H9; endpoint: CC50

a–b is a range or a potency band.

compound	value
Nc1nc(=O)n([C@H]2C[C@H](O)[C@@H](CO)O2)cc1-c1ccccc1	<10 µg/mL
C[C@H]1[C@H](C)CC[C@]2(C(=O)O)CC[C@]3(C)C(=CCC4[C@@]5(C)C[C@@H](O)[C@H](O)[C@@](C)(CO)[C@@H]5CC[C@]43C)[C@H]12	9 µg/mL
CCOc1ccc(Cc2c3cc(OCC)c(OCC)cc3cc[n+]2C)cc1OCC	17.1 µg/mL
CCC(C)C(=O)O[C@@H]1c2c(ccc3ccc(=O)oc23)OC(C)(C)[C@@H]1OC(=O)C(C)CC	47–233 µM
Nc1nc(=O)n([C@@H]2C[C@H](O)[C@@H](CO)O2)cc1-c1ccncc1	>10 µg/mL
CC1(C)CC[C@]2(C(=O)O)CC[C@]3(C)C(=CCC4[C@@]5(C)CC[C@H](OC(=O)C(C)(C)CC(=O)O)C(C)(C)C5CC[C@]43C)C2C1	9.7 µg/mL
Cc1cn([C@H]2C[C@H](N=[N+]=[N-])[C@@H](CO)O2)c(=O)[nH]c1=O	500 µg/mL
Nc1ccn([C@H]2CC[C@@H](CO)O2)c(=O)n1	>1 µg/mL
Cc1cn([C@H]2C[C@H](N=[N+]=[N-])[C@@H](CO)O2)c(=O)[nH]c1=O	10 µM
Cc1ccc(C(=O)OC[C@H]2O[C@H](n3cc(-c4sccc4C)c(=O)[nH]c3=O)C[C@@H]2OC(=O)c2ccc(C)cc2)cc1	<10 µg/mL
C[C@@H]1CC[C@]2(C(=O)O)CC[C@]3(C)C(=CCC4[C@@]5(C)C[C@@H](O)[C@H](O)C(C)(C)C5CC[C@]43C)C2[C@H]1C	8 µg/mL
O=c1ccc2cc3ccoc3cc2o1	19.1 µg/mL
COc1cc(/C=C/C(=O)OCCCc2ccc(O[C@@H](COC(=O)/C=C/c3ccc(O)c(OC)c3)[C@@H](O)c3ccc(O)c(OC)c3)c(OC)c2)ccc1O	17.86 µg/mL
Nc1nc(=O)n([C@H]2CO[C@@H](CO)S2)cc1F	>500 µM
Cc1ccc(C(=O)OC[C@H]2O[C@H](n3cc(-c4ccc(-c5ccccc5)s4)c(N)nc3=O)C[C@@H]2OC(=O)c2ccc(C)cc2)cc1	<10 µg/mL
C[C@@H]1CC[C@]2(C(=O)O)CC[C@]3(C)C(=CCC4[C@@]5(C)C(O)C(=O)[C@H](O)C(C)(C)C5CC[C@]43C)C2[C@]1(C)O	4 µg/mL
CC(C)[C@@H](NC(=O)C[C@@H]1O[C@@H]1[C@H](Cc1ccccc1)NC(=O)[C@@H](NC(=O)COc1cccc2cnccc12)C(C)(C)S(C)(=O)=O)c1ccccc1	>100 µM
O=C(O[C@@H]1Cc2c(cc(O)c(Cc3c(O)cc(O)c4c3O[C@H](c3cc(O)c(O)c(O)c3)[C@H](OC(=O)c3cc(O)c(O)c(O)c3)C4)c2O)O[C@@H]1c1cc(O)c(O)c(O)c1)c1cc(O)c(O)c(O)c1	40 µg/mL
CC1NCCc2cc(O)c(O)cc21	21.2 µg/mL
O=C(/C=C/c1ccc(O)c2c1[C@H](C(=O)O[C@H](Cc1ccc(O)c(O)c1)C(=O)O)[C@@H](c1ccc(O)c(O)c1)O2)O[C@H](Cc1ccc(O)c(O)c1)C(=O)O	>220 µM
O=C(O[C@@H]1Cc2c(O)cc(O)cc2O[C@@H]1c1cc(O)c(O)cc1-c1c([C@H]2Oc3cc(O)cc(O)c3C[C@H]2OC(=O)c2cc(O)c(O)c(O)c2)cc(O)c(O)c1O)c1cc(O)c(O)c(O)c1	50 µg/mL
COc1c2c(cc3c1-c1c(cc4c(c1OC)OCO4)C(OC(=O)c1ccccc1)[C@@](C)(O)[C@@H](C)C3)OCO2	25.3 µg/mL
CC1(C)Oc2ccc3ccc(=O)oc3c2[C@H](OC(=O)C23CCC(C)(C(=O)O2)C3(C)C)[C@H]1OC(=O)C12CCC(C)(C(=O)O1)C2(C)C	6.4–32 µM
O=c1c(O)c(-c2ccc(O)c(O)c2)oc2cc(O)cc(O)c12	<4 µg/mL
CCCCCCCCCCCCCCCCCCCCCCOCC(C)(COCCCCCCCCCCCCCCCCCCCCCC)CO[C@]1(C(=O)O)C[C@H](OS(=O)(=O)O)[C@@H](NC(C)=O)[C@H]([C@H](OS(=O)(=O)O)[C@@H](COS(=O)(=O)O)OS(=O)(=O)O)O1	>200 µM
COc1cc([C@H]2Oc3c(OC)cc4ccc(=O)oc4c3O[C@@H]2CO)ccc1O	18.63 µg/mL
CCCCCCc1ccsc1-c1cn([C@H]2C[C@H](OC(=O)c3ccc(C)cc3)[C@@H](COC(=O)c3ccc(C)cc3)O2)c(=O)[nH]c1=O	>10 µg/mL
C[C@@H]1CC[C@]2(C(=O)O)CC[C@]3(C)C(=CC[C@@H]4[C@@]5(C)CC[C@H](O)C(C)(C)[C@@H]5CC[C@]43C)[C@@H]2[C@]1(C)O	23.3 µg/mL
Nc1nc(=O)n([C@@H]2C[C@H](O)[C@@H](CO)O2)cc1-c1ccccc1	<10 µg/mL
CC1(C)Oc2ccc3ccc(=O)oc3c2C(OC(=O)c2cccc(Cl)c2)C1OCc1ccccc1	8–41 µM
Nc1ccn([C@@H]2CO[C@H](CO)S2)c(=O)n1	>500 µM
COc1c(O)cc(C(=O)O[C@@H]2Cc3c(O)cc(O)cc3O[C@@H]2c2ccc(O)c(O)c2)cc1O	50 µg/mL
Cc1cn([C@H]2C[C@H](N=[N+]=[N-])[C@@H](CO)O2)c(=O)[nH]c1=O	>0.5 µM
CC1(C)CC[C@]2(C(=O)O)CC[C@]3(C)C(=CCC4[C@@]5(C)CCC(=O)C(C)(C)C5CC[C@]43C)C2C1	0.8 µg/mL
COc1cc([C@@H]2Oc3c(OC)cc(CCCO)cc3[C@H]2CO)ccc1O	>25 µg/mL
COc1cc(CO)c(Cc2c3cc(OC)c(OC)cc3cc[n+]2C)cc1OC	>100 µg/mL
O=c1ccn([C@H]2C[C@H](F)[C@@H](CO)O2)c(=O)[nH]1	>2500 µM
COc1cc(/C=C/C(=O)O[C@H]2CC[C@@]3(C)C(CC[C@]4(C)C3CC=C3[C@@H]5CC(C)(C)CC[C@]5(C(=O)O)CC[C@]34COC(=O)/C=C/c3ccc(O)c(O)c3)C2(C)C)ccc1O	14.95 µg/mL
Cc1c2cc(OCc3ccccc3)c(OCc3ccccc3)cc2cc[n+]1C	0.171 µg/mL
O=C(O[C@@H]1Cc2c(O)cc(O)cc2O[C@@H]1c1cc(O)c(O)c2c1C1C([C@H]3Oc4cc(O)cc(O)c4C[C@H]3O)=CC(=O)C1(O)O2)c1cc(O)c(O)c(O)c1	48 µg/mL
O=c1cc(-c2ccc(O)cc2)oc2cc(O[C@@H]3O[C@H](CO)[C@@H](O)[C@H](O)[C@H]3O)cc(O)c12	>100 µg/mL

Repeating the first 6 entries:

compound,value
Nc1nc(=O)n([C@H]2C[C@H](O)[C@@H](CO)O2)cc1-c1ccccc1,<10 µg/mL
C[C@H]1[C@H](C)CC[C@]2(C(=O)O)CC[C@]3(C)C(=CCC4[C@@]5(C)C[C@@H](O)[C@H](O)[C@@](C)(CO)[C@@H]5CC[C@]43C)[C@H]12,9 µg/mL
CCOc1ccc(Cc2c3cc(OCC)c(OCC)cc3cc[n+]2C)cc1OCC,17.1 µg/mL
CCC(C)C(=O)O[C@@H]1c2c(ccc3ccc(=O)oc23)OC(C)(C)[C@@H]1OC(=O)C(C)CC,47–233 µM
Nc1nc(=O)n([C@@H]2C[C@H](O)[C@@H](CO)O2)cc1-c1ccncc1,>10 µg/mL
CC1(C)CC[C@]2(C(=O)O)CC[C@]3(C)C(=CCC4[C@@]5(C)CC[C@H](OC(=O)C(C)(C)CC(=O)O)C(C)(C)C5CC[C@]43C)C2C1,9.7 µg/mL

CCn: concentration that lowers growth or viability of the cells by n%. Lines come from different laboratories, so protocols vary.